This is a selection: effects in other tests are not listed, and their absence says nothing.
System: Mammalian orthoreovirus, type 3 (strain Dearing, ATCC VR-824)
Test: Reovirus model, titration on L929 cells (Table 2)
Type: cell-based
Details: 0.05% inactivator
[1] = 16 hours, 2-8° C., then 3 hours at 37° C.

| SMILES | Reduction (of reovirus titre) [1] [log 10] | Reduction (of reovirus titre) (16 hours, 37° C.) [log 10] | Reduction (of reovirus titre) (24 hours, 19-23° C.) [log 10] | Reduction (of reovirus titre) (24 hours, 37° C.) | Reduction (of reovirus titre) (48 hours, 19-23° C.) [log 10] |
| --- | --- | --- | --- | --- | --- |
| CCC(OO)OO | 5.0 | 7.65 | 5.8 | ≧7.9 log 10 | 5.5 |
| CCC(C)(OO)OO | 3.5 |  |  |  |  |

From patent US9426989B2 (priority 2010, dated 2016)
